Pooled drug test results. Numbers come from NIAID ChemDB, via PubChem.

All rows: target-level tests; agent: HIV-2; protein: Reverse transcriptase; measure: IC50

ICn is the concentration giving n% inhibition. An empty or dashed field is not shown. Lines come from different laboratories, so protocols vary.

smiles	strain or isolate	mutations	method	value
Cc1ccc(C)c(CS(=O)(=O)c2cccc[n+]2[O-])c1			nucleotide incorporation / radiometric	>500 µg/mL
C[C@H]1C2(O)CCC3C1(CCC1[C@@]3(C)CC[C@@]3(C)C4C[C@](C)(C(=O)O)CC[C@]4(C)CC[C@]13C)CO2				100 µg/mL
CCc1c(C)[nH]c(=O)c(N)c1Sc1cc(C)cc(C)c1			nucleotide incorporation	>10 µM
O=C(COCC(=O)Nc1ccc(Br)cc1C(=O)O)Nc1ccc(Br)cc1C(=O)O				>100 µg/mL
Cc1ccc(C)c(C(C)S(=O)(=O)c2c(C)ccc[n+]2[O-])c1			nucleotide incorporation / radiometric	>500 µg/mL
CC(C)=CCOc1cc(NC(=S)c2ccoc2C)ccc1Cl				>100 µM
COc1ccc(C)cc1CS(=O)(=O)c1cccc[n+]1[O-]			nucleotide incorporation / radiometric	>500 µg/mL
CC(C)OC(=O)c1cc(NC(=S)OC(C)C)ccc1Cl				>>300 µM
CC(C)=CCN1Cc2cccc3[nH]c(=S)n(c23)C[C@@H]1C				>300 µM
CC(C)=CCN1Cc2cccc3[nH]c(=S)n(c23)C[C@@H]1C	ROD		nucleotide incorporation	>300 µM
CC(C)=CCOc1cc(NC(=S)c2ccsc2C)ccc1Cl				>100 µM
O=C(CCCCC(=O)Nc1ccc(Br)cc1)Nc1ccccc1				>100 µg/mL
COc1ccc(C)cc1CS(=O)(=O)c1cccc[n+]1[O-]			nucleotide incorporation / radiometric	>500 µg/mL
O=C(Cc1cccc(CC(=O)Nc2ccc(Br)cc2C(=O)O)c1)Nc1ccc(Br)cc1C(=O)O				>100 µg/mL
C=C1CCC[C@H]2[C@](C)(CC3=C(OC)C(=O)C=C(OC)C3=O)[C@@H](C)CC[C@]12C			nucleotide incorporation	45 µM
C=C(C)OC(=O)N1c2cc(Cl)ccc2NC(=S)C1(C)C	ROD	RT-D194	radiometric	>500 µM
COc1ccc(OC)c(C/C=C(\C)CC/C=C(\C)CC/C=C(\C)CC/C=C(\C)CC/C=C(\C)CCC=C(C)C)c1			nucleotide incorporation	10 µM
O=C(OC1[C@H](OC(=O)c2cc(O)c(O)c(O)c2)CC(OC(=O)c2cc(O)c(O)c(O)c2)(C(=O)O)C[C@H]1OC(=O)c1cc(O)c(O)c(O)c1)c1cc(O)c(O)c(O)c1	ROD			0.8 µM
Cc1ccc(C)c(CS(=O)(=O)c2cccc[n+]2[O-])c1			nucleotide incorporation / radiometric	>500 µg/mL

3 of the rows above, restated:

smiles	strain or isolate	mutations	method	value
CC(C)=CCN1Cc2cccc3[nH]c(=S)n(c23)C[C@@H]1C	ROD		nucleotide incorporation	>300 µM
COc1ccc(C)cc1CS(=O)(=O)c1cccc[n+]1[O-]			nucleotide incorporation / radiometric	>500 µg/mL
O=C(COCC(=O)Nc1ccc(Br)cc1C(=O)O)Nc1ccc(Br)cc1C(=O)O				>100 µg/mL